Human monoclonal antibodies against the spike receptor-binding domain (heavy:light variable regions). IC50 against pseudoviruses bearing the spike of naturally observed variants; lower = stronger; >10 µg/ml means not reached at the top dose. No active / inactive call. The stated detection limit is 0.0005 µg/ml; values near or below 0.001 µg/ml lie at the floor of the assay.
B1: XGv-073 (protein)
chain 1: EVQLVESGGALVQPGGSLRLSCAASGFTFSTYDMHWVRQSTGKGLEWVSAIGTAGDTYYSDSVKGRFTISRENAKNSLYLQMNSLRAGDTAVYYCGRGGNGYHWYFDLWGRGTLVSVSS
chain 2: DIQMTQSPSSLSASVGDRVTITCRASQSISSYLNWYQQKPGKAPKLLIYASSTLQSGVPSRFSGSGSGTDFTLTISSLQPEDFATYYCQQSYSMPPVTFGQGTRLDIK
B2: XGv-094 (protein)
chain 1: QVQLQESGPGLVKPSQTLLLTCAVSGDSISSSSWWSWVRQSPRKGLEWIGEIYHRASTNYNPSLKSRATISVDKSKNQFSLKLSSVTAADTAMYYCARRRPSDYIAFDLWGQGTMVTVSS
chain 2: DIQMTQSPSSLSASVGDRVTITCRANQDINDYLIWYQQKPGKAPKLLIYAASSLQSGVPSRFTGSGSGTHFTLTISSLQPEDFATYYCQQSYSSTLTFGGGTQVQIK
B3: XGv-101 (protein)
chain 1: QVQLVQSGTEMKKPGASVKVSCKASGYTFGSYGISWVRQAPGQGLEWMGWISAYDGNTNYAQKVKGRVTMTRDTSTSTVYMELRSLRSDDTAVYYCARVDSYYSDSSAYYFDYWGQGTLVTVSS
chain 2: EIVMTQSPATLSVSLGERATLSCRASQSVSSHLAWYQQKPGQAPRLLIYGASTRATGVPARFSGSGSGTEFTLSISSLQSEDFAVYYCQQYSDWPPLFTFGPGSKVDVK
B4: XGv-105 (protein)
chain 1: EVQLLESGGGLVQPGGSLRLSCAASTITFSGYAMNWVRQAPGKGLEWVSGISGTGGRTYYADSVKGRFTISRDESKNTLFLQMNSLRAEDTAVYYCAKDGIFGYCDGGICYSAYFDSWGQGTLVTVSS
chain 2: QSVLTQPPSASGTPGQRVTISCSGSSSNIGRNTVNWYQQLPGTAPKLLIYTNNQRPSGVPDRFSGSKSGTSASLAVSGLQSEDEADYYCAAWDDSLNGVVFGGGTKLTVL
B5: XGv-116 (protein)
chain 1: QVQLVESGGGVVQPERSLRLSCAASGFTFSSYTMHWVRQAPGKGLEWVAIISYDGSSEYYADSVKGRFTISRDNSKNTLYLQMNSLRVEDTAVYYCARVDRSGYYTWGEEHYWGQGALVTVSS
chain 2: EIVLTQSPVTLSLSPGERATLSCRASQSVSSYLAWYQQKPGQAPRLLIYDASNRATGIPARFSGSGSGTDFTLTISSLEPEDFAVYYCHQRSNWPGTFGQGTKVEIK
B6: XGv-157 (protein)
chain 1: QVQLVQSGAEMKKPGASVKVSCKASGYTFSNYGINWVRQAPGRGLEWMGWISGYNGNTKYAQKLQGRVTMTTDTSTTTAYMELRSLRSDDTAVYYCARTLGLWFGVDNWGQGTLVTVSS
chain 2: NFMLTQPHSVSESPGKTVTISCTGSSGSIASNYVQWYQQRPGSAPTTVIYEDKQRPSGVPDRFSGSIDSSSNSASLTISGLKNEDESDYYCQSYDGSSVIFGGGTK
B7: XGv-177 (protein)
chain 1: EVQLVESGGGLIQPGGSLRLSCAASGVTVSSNYMTWVRQAPGKGLDWVSVIYSGGSTFYADSVKGRFTISRDNSKNTLYLQMNSLRVEDTAVYYCARDLVDYGLDVWGQGTTVTVSS
chain 2: DIQLTQSPSFLSASVGDRVTITCRASQGIASYLAWYQQKPGKPPKLLIYAASTLQSGVPTRFSGSGSGTEFTLTITSLQPEDFATYYCQLLSRHPPTFGGGTKVEI
B8: XGv-208 (protein)
chain 1: QLQLQESGPGLVRPSETLSLTCTVSGWSISSSNYYWGWIRQPPGKGLEWIGNVHNRGSTSYNPSLKSRVTISVDTSKNQFSLRLSSVTAADTALYYCVRGLGFLDPWGQGTLVTVSS
chain 2: DIQMTQSPSSLSASVGDRVTITCRASQGIRNSLAWYQQKPGLAPQLLLYAASTLESGVPSRFSGSGSGTEFTLTISSLQPEDFATYYCQQYYSPPPYTFGQGTKLESK
B9: XGv-227 (protein)
chain 1: EVQLVESGGGLVKPGGSLRLSCAASGFTYSNAWMTWVRQAPGKGLEWVGRVKSKSDGGTTDYAAPVKGRFTISRDDSKKMLYLQMNSLKTEDTAVYYCSTSEIGIVGATELLYWGQGTLLTVSS
chain 2: DIQMTQSPSSLSASVGDRVTITCRASQRINSYLNWYQQKPGKAPNLLIFGASNFQSGVPSRFSGSGSGTDFTLTISSLQPEDFATYYCQQSYITPWTFGQGTKVEMK
B10: XGv-233 (protein)
chain 1: QVQLQESGPGLVKPSQTLSLTCTVSGGSINTGGFCWSWLRQLPGKGLEWLGHIYYSGDTYYNPSLNSRLRISVDTSRKQFSLKLSSVTAADTAVYYCARALTDPGWFDPWGHGTLVTVSS
chain 2: SYVLTQPPSVSVAPGKTASITCGGNNIGSKSVHWYQQKPGQAPVMVIYYDSARPSGIPERFSGSNSGDTATLTISRVEAGDEADYHCQVWDSNTDHPVFGGGTKLTV
B11: XGv-236 (protein)
chain 1: EVQLVESGGGLVQPGGSLRLSCAASGITFSSYWMHWVRQGPGKGLVWVSLINSDGSTTTYADSVKGRFTISRDNAKNTLHLQMNSLRAEDTAVYYCATSQWLRGGMDVWGQGTTVTVSS
chain 2: NFMLTQPHSVSESPGKTVTISCTGSSGSIASNYVQWYQQRPGSAPTIVIYEDNQRPSGVPDRFSGSIDSSSNSASLTISGLKTEDEADYYCQSYDSSTYVVFGGG
B12: XGv-250 (protein)
chain 1: QVQLVQSGAEVKKPGSSVKVSCKASGNTFSSHSITWVRQAPGQGLEWMGRIMPMLGIANYAQKFQGRVTITADKSTNTAYMDLSSLRSEDTAVYYCACGRLGESSLYLIDYWGQGTLVTVSS
chain 2: NFMLTQPHSVSESPGKTVTISCTRSSGSIASNYVQWYQRRPGSAPTTLIYEDNQRPSGVPDRFSGSIDSSSNSASLIISGLKTEDEADYYCQSYDLSNWVFGGGTKLTVL
B13: XGv-253 (protein)
chain 1: EVQLVESGGGLVQPGGSLRLSCAASGFTFSRYDMHWVRQAAGKGLEWVSGIGAPGDTYYAGSVKGRFTISRENAKTSLHLQMNNLRAGDTAVYYCTRGWFGENYMDVWGKGTTVTVSS
chain 2: EIVLTQSPATLSLSPGERATLSCRASQSVSNHLAWFQQKPGQSPRLLIYDASNRATGIPARFSGSGSGTDFTLTISSLEPEDFAIYYCHQRSNWPTFGQGTKVEIK

Columns and labels:
Assay in all cases: pseudovirus neutralization IC50; higher = weaker neutralization
[1] = target: SARS-CoV-2 Omicron BA.1 spike pseudovirus
Method: (§1)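 Single-round VSV luciferase pseudovirus mixed with antibody dilutions for 1 h and put on Huh-7 cells for about a day; IC50 from the dose curve.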

[2] = target: SARS-CoV-2 Omicron BA.2 spike pseudovirus
Method: as §1

[3] = target: SARS-CoV-2 Omicron BA.2.75 spike pseudovirus
Method: as §1

[4] = target: SARS-CoV-2 Omicron BA.5 spike pseudovirus
Method: as §1

[5] = target: SARS-CoV-2 Omicron BQ.1.1 spike pseudovirus
Method: as §1

[6] = target: SARS-CoV-2 Omicron XBB spike pseudovirus
Method: as §1

[7] = target: SARS-CoV-2 early D614G spike pseudovirus
Method: as §1

Row | Binder | pseudovirus neutralization IC50 [1] | pseudovirus neutralization IC50 [2] | pseudovirus neutralization IC50 [3] | pseudovirus neutralization IC50 [4] | pseudovirus neutralization IC50 [5] | pseudovirus neutralization IC50 [6] | pseudovirus neutralization IC50 [7]
1 | B1 | > 10 µg/mL | > 10 µg/mL | > 10 µg/mL | > 10 µg/mL | > 10 µg/mL | > 10 µg/mL | 0.49 µg/mL
2 | B2 | > 10 µg/mL | > 10 µg/mL | > 10 µg/mL | > 10 µg/mL | > 10 µg/mL | > 10 µg/mL | 0.0767 µg/mL
3 | B3 | 0.378 µg/mL | 0.914 µg/mL | 0.902 µg/mL | 0.829 µg/mL | > 10 µg/mL | > 10 µg/mL | 3.07 µg/mL
4 | B4 | 2.26 µg/mL | > 10 µg/mL | 6 µg/mL | 6.46 µg/mL | > 10 µg/mL | 5.26 µg/mL | 1.69 µg/mL
5 | B5 | 1.01 µg/mL | > 10 µg/mL | > 10 µg/mL | > 10 µg/mL | > 10 µg/mL | > 10 µg/mL | 0.063 µg/mL
6 | B6 | > 10 µg/mL | > 10 µg/mL | > 10 µg/mL | > 10 µg/mL | > 10 µg/mL | > 10 µg/mL | 0.715 µg/mL
7 | B7 | 1.86 µg/mL | 0.426 µg/mL | 4.44 µg/mL | 5.96 µg/mL | > 10 µg/mL | > 10 µg/mL | 0.0313 µg/mL
8 | B8 | > 10 µg/mL | > 10 µg/mL | > 10 µg/mL | > 10 µg/mL | > 10 µg/mL | > 10 µg/mL | 0.00373 µg/mL
9 | B9 | 0.492 µg/mL | 0.583 µg/mL | 0.785 µg/mL | 5.48 µg/mL | > 10 µg/mL | > 10 µg/mL | 0.291 µg/mL
10 | B10 | 1.19 µg/mL | 2.12 µg/mL | 1.07 µg/mL | > 10 µg/mL | > 10 µg/mL | > 10 µg/mL | 0.26 µg/mL
11 | B11 | > 10 µg/mL | > 10 µg/mL | > 10 µg/mL | > 10 µg/mL | > 10 µg/mL | > 10 µg/mL | 0.253 µg/mL
12 | B12 | > 10 µg/mL | 0.916 µg/mL | > 10 µg/mL | > 10 µg/mL | > 10 µg/mL | > 10 µg/mL | 0.333 µg/mL
13 | B13 | > 10 µg/mL | > 10 µg/mL | 0.0316 µg/mL | – | – | – | 0.0111 µg/mL
